PubChem BioAssay AID1259414 | Drosophila RNAi Screening Center | 2018

- Aim: 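Fly genes that alter Wolbachia amount inside host cells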 (primary screen)
- Cells: Drosophila JW18 cells infected with Wolbachia
- Knock-down reagent: long dsRNA against Drosophila genes, 0.25 µg dsRNA per well of a 384-well plate
- Timing: 5 days
- Challenge: cells persistently infected with Wolbachia before knock-down; no added drug
- Measured: 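Automated imaging of bacterial rRNA staining divided by host cell count, reported as plate-normalised robust z-score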
- Reading the numbers: Wolbachia per cell robust z: higher = more Wolbachia per host cell than the plate typical
- Call rule: 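Hit when robust z is 1.5 or more, or -1.5 or less, in at least two of three replicates; excludes dsRNAs with several or no targets, genes not expressed in JW18 and well A1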
The screen tested about 24,000 reagents; shown is a random part of those that have a named target and a result. In the full data, about 1,210 (5%) are marked active. 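Inactive calls also include excluded dsRNAs with several or no targets, genes unexpressed in JW18, and well A1, regardless of score.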 A number with no mark means an inactive call. The numbers tell different reagents against one gene apart.

"Wolbachia per cell robust z, rep 1","Wolbachia per cell robust z, rep 2","Wolbachia per cell robust z, rep 3",gene knocked down,dsRNA no.
-1.19,-1.76,-0.773,zormin,1
0.807,1.2,0.444,zormin,2
0.0933,-0.552,0.513,zormin,3
0.709,0.389,0.711,zormin,4
-0.297,0.313,0.532,zormin,5
-0.984,0.176,0.862,zormin,6
0.194,-0.742,0.745,CG18368,1
-0.0974,-1.18,0.678,fliI,1
-0.749,-0.595,-0.369,Tmlh,1
1.01,1.42,2.16,lark,1
2.2 (active),2.52,1.09,lark,2
0.873,0.641,-1.53,Rab26,1
-3.08,-0.0703,-0.367,Rab26,2
-0.48,-0.695,1.33,Rab26,3
0.0431,0.517,0.53,Rab26,4
0.443,0.523,0.71,CG12590,1
-0.416,-0.674,-0.836,lncRNA:CR32582,1
0.874,-1.39,-1.95,Cyp4ad1,1
-0.468,-0.329,-0.97,Dnaaf4,1
-6.29,0.79,-0.0636,Utx,1
1.53,-0.603,1.29,CG14218,1
0.44,0.112,1.19,CG14218,2
1.56,-1.3,0.392,Ist1,1
1.08,0.921,0.538,Ist1,2
-5.19,-1.53,-1.51,CG13748,1
0.282,-0.26,0.0624,fan,1
0.444,0.558,-3.7,CG7031,1
0.926,0.662,-1.1,CG7031,2
-5.57 (active),-0.664,-2.42,CG10494,1
0.672,-0.299,-2.19,CG10494,2
-0.188,0.14,0.116,ATPsynO,1
0.148,-0.386,1.23,ATPsynO,2
-0.801,-0.859,0.836,CG13325,1
0.0677,-0.00889,-1.01,CG13325,2
1.26,-2.72,0.8,AkhR,1
-1.97,-0.134,-0.412,AkhR,2
0.759,1.21,-0.16,CG7227,1
-8.16,0.0994,0.577,unc-13-4A,1
0.829,0.51,0.489,unc-13-4A,2
-0.172,-0.706,-0.539,unc-13-4A,3
-0.493,-2.52,-1.28,Klp64D,1
0.851,0.554,1.3,TotX,1
0.469,0.916,0.306,TotX,2
-0.879,-2.39,0.387,Nse1,1
-0.279,-0.298,-1.51,PMP34,1
-0.977,-0.507,-0.554,Octbeta2R,1
0.562,0.328,-0.256,Octbeta2R,2
-0.784,0.395,-2.11,Octbeta2R,3
-0.404,-5.93,-0.638,Octbeta2R,4
0.179,-0.454,-0.855,Octbeta2R,5
-1.34,-4.27,0.162,CG10257,1
-2.6,0.212,-4.2,RYBP,1
-1.38,0.639,-0.165,RYBP,2
-0.636,-0.217,-0.00843,Ir52c,1
0.893,-0.382,-10.6,Ir52c,2
-0.864,-7.17,-1.1,CG34214,1
-3.26,0.291,0.174,Diap2,1
-0.932,-1.55,0.497,Diap2,2
0.648,1.09,-0.222,CG7149,1
-2.25,0.0674,-1.04,Serinc,1
0.854,-1.4,0.154,Naa20B,1
-1.02,-0.42,-5.1,Naa20B,2
-2.23,0.181,0.293,Naa20B,3
-1.47,0.7,-0.317,CG13097,1
0.228,-3.53,-0.424,Acf,1
-3.55,-0.398,-0.728,Acf,2
-9.22 (active),-2.36,-0.128,CG5861,1
0.416,0.216,1.24,CG14397,1
